Results of unrelated studies side by side (data: NIAID ChemDB).

All rows: growth or infection tests; organism: Mycobacterium smegmatis; read-out: MIC

a–b is a range or a potency band. Conditions beyond the fields shown may differ between rows.

C=C1C2CCC(C(=O)O)[C@@]23CC[C@H](C3)C1(C)C ; strain: ATCC 700084 ; method: agar diffusion ; value: 12.5 µg/mL
CCCCCCCCC(O)[C@@H]1O[C@H](C(C)O)C(O)C1O ; strain: mc2155 ; method: absorbance ; value: 2 µM
CSCC[C@H](NS(=O)(=O)c1ccc(C)cc1)C(=O)N/N=C/c1ccc(Cl)s1 ; strain: ATCC 607 ; method: broth dilution / visual reading ; value: >250 µg/mL
O=C(O)c1c2n(c3cc(N4CCN(C(=O)c5ccco5)CC4)c(F)cc3c1=O)CS2 ; strain: ATCC 14468 MC2 ; method: agar ; value: 58.22 µM
CSCC[C@H](NS(=O)(=O)c1ccc(C)cc1)C(=O)N/N=C/c1ccc(-c2ccc([N+](=O)[O-])cc2)o1 ; strain: ATCC 607 ; method: broth dilution / visual reading ; value: >250 µg/mL
O=C(O)c1c2n(c3cc([N+](=O)[O-])c(N4CCN(C(=O)c5ccco5)CC4)cc3c1=O)CS2 ; strain: ATCC 14468 ; method: agar ; value: 0.85 µM
CCCCCCCCCCCCCCCCCCCCCOC(=O)NC(CCC(=O)O)(CCC(=O)O)CCC(=O)O ; strain: mc155 ; value: 5 µg/mL
NCCCNCc1ccc(Nc2ccn(CCCCN3CCC(N)CC3)c(=O)n2)nc1 ; method: turbidity ; value: 32–128 µg/mL
CC1CN(c2cc3c(=O)c(C(=O)O)c4n(c3cc2[N+](=O)[O-])CS4)CC(C)O1 ; strain: ATCC 14468 ; method: agar ; value: 63.87 µM
CSCC[C@H](NS(=O)(=O)c1ccc(C)cc1)C(=O)N/N=C/c1cccc2c1OCO2 ; strain: ATCC 607 ; method: broth dilution / visual reading ; value: >250 µg/mL
COc1ccc(/C=C/C2=NN(C(=N)N)C(c3ccc(OC)cc3)C2)cc1 ; method: resazurin ; value: 1.78 µM
CCCCCCCCC(O)[C@@H]1O[C@H]([C@H](O)C(=O)OC)C(O)C1O ; strain: mc2155 ; method: absorbance ; value: 1.6 µM
NC1CCN(CCCCn2ccc(Nc3ccc(CNC[C@@H](N)CO)cn3)nc2=O)CC1 ; method: turbidity ; value: <8 µg/mL
CCCCCCCCOCC(C)(COc1ccccc1)[C@@H]1O[C@H]([C@H](O)CO)C(O)C1O ; strain: mc2155 ; method: absorbance ; value: 0.09 µM
O=C(O)c1c2n(c3cc(N4CCC(n5c(=O)[nH]c6cc(Cl)ccc65)CC4)c([N+](=O)[O-])cc3c1=O)CS2 ; strain: ATCC 14468 MC2 ; method: agar ; value: 11.84 µM
C[C@H](N)C(=O)NCc1ccc(Nc2ccn(CCCCN3CCC(N)CC3)c(=O)n2)nc1 ; method: turbidity ; value: 32–128 µg/mL
CCCCCCCCOCC(COCCCCCCCC)[C@@H]1O[C@H]([C@H](O)CO)C(O)C1O ; strain: mc2155 ; method: absorbance ; value: 1 µM
CNCCC[C@@H](CN[C@H](CN)Cc1cccc2ccccc12)NCCc1cccc2ccccc12 ; strain: mc2155 ; method: absorbance ; value: 12.5 µM
CCCCCCCCCN(CCCCCCCCC)C(=O)NC(CCC(=O)O)(CCC(=O)O)CCC(=O)O ; strain: mc155 ; value: 105 µg/mL
CC(C)(C)OC(=O)NC1C2CN(c3cc4c(=O)c(C(=O)O)c5n(c4cc3F)CS5)CC21 ; strain: ATCC 14468 ; method: agar ; value: 55.87 µM
COc1cc2c(cc1OC)CN(c1cc3c(cc1[N+](=O)[O-])c(=O)c(C(=O)O)c1n3CS1)CC2 ; strain: ATCC 14468 MC2 ; method: agar ; value: 106.5 µM
C=CCOc1ccc(/C=N/NC(=O)[C@H](CCSC)NS(=O)(=O)c2ccc(C)cc2)cc1 ; strain: ATCC 607 ; method: broth dilution / visual reading ; value: >250 µg/mL
CC1OC(n2ccc(NC(=O)c3ccc(NC(=O)C(C)(N)CO)cc3)nc2=O)CCC1OC1OC(C)C(N(C)C)C(O)C1O ; method: broth dilution / agar diffusion ; value: 8 µg/mL
CCCC[C@@H](CN[C@@H](CN)CCCCNC)NCc1cccc2ccccc12 ; strain: mc2155 ; method: absorbance ; value: 25 µM
CN1CCN(c2cc3c(=O)c(C(=O)O)c4n(c3cc2[N+](=O)[O-])CS4)CC1c1ccccc1 ; strain: ATCC 14468 ; method: agar ; value: 52.25 µM
CSCC[C@H](NS(=O)(=O)c1ccc(C)cc1)C(=O)N/N=C(\C)c1ccncc1 ; strain: ATCC 607 ; method: broth dilution / visual reading ; value: >250 µg/mL
CCCCCCCCCCCCCCCOC(=O)NC(CCC(=O)O)(CCC(=O)O)CCC(=O)O ; strain: mc155 ; value: 36 µg/mL
COc1cc(-c2ccccn2)nc(CO)c1SC ; method: broth dilution / agar diffusion ; value: 64 µg/mL
CSCC[C@H](NS(=O)(=O)c1ccc(C)cc1)C(=O)N/N=C/c1ccc(N2CCOCC2)cc1 ; strain: ATCC 607 ; method: broth dilution / visual reading ; value: >250 µg/mL
Cc1onc(-c2c(F)cccc2F)c1C(=O)N1CCN(c2cc3c(cc2[N+](=O)[O-])c(=O)c(C(=O)O)c2n3CS2)CC1 ; strain: ATCC 14468 MC2 ; method: agar ; value: 5.36 µM
CCCCCCCCC(O)[C@@H]1O[C@H]([C@H](O)CNC(C)=O)C(O)C1O ; strain: mc2155 ; method: absorbance ; value: >1.5 µM
CCCCCCCN(CCCCCCC)C(=O)NC(CCC(=O)O)(CCC(=O)O)CCC(=O)O ; strain: mc155 ; value: 54 µg/mL
NC1CCN(CCCCn2ccc(Nc3cc(C(=O)N4CCNCC4)ccn3)nc2=O)CC1 ; method: turbidity ; value: 8–32 µg/mL
O=C(O)c1c2n(c3cc(N4CCN(C(=O)c5ccco5)CC4)c([N+](=O)[O-])cc3c1=O)CS2 ; strain: ATCC 14468 MC2 ; method: agar ; value: 0.85 µM
CCCCCCCCC(O)[C@@H]1O[C@H]([C@H](O)CNC(=O)CCCC)C(O)C1O ; strain: mc2155 ; method: absorbance ; value: 1.2 µM
NC1CCN(CCCCn2ccc(Nc3nccc(C(=O)NC4CNC4)c3F)nc2=O)CC1 ; method: turbidity ; value: 32–128 µg/mL
COc1ccc(CC2C3=C(CCCC3)CCN2c2cc3c(cc2[N+](=O)[O-])c(=O)c(C(=O)O)c2n3CS2)cc1 ; strain: ATCC 14468 MC2 ; method: agar ; value: 11.71 µM
O=C(O)c1c2n(c3cc([N+](=O)[O-])c(N4CCSCC4)cc3c1=O)CS2 ; strain: ATCC 14468 ; method: agar ; value: 132 µM
CCCCCCCCC(O)[C@@H]1O[C@H](CO)C(O)C1O ; strain: mc2155 ; method: absorbance ; value: 1.7 µM
CNCC1(COCc2ccc(Nc3ccn(CCCCN4CCC(N)CC4)c(=O)n3)nc2)CC1 ; method: turbidity ; value: 8–32 µg/mL
O=C(O)c1c2n(c3cc(F)c(N4CCN(C(c5ccccc5)c5ccc(Cl)cc5)CC4)cc3c1=O)CS2 ; strain: ATCC 14468 ; method: agar ; value: 46.64 µM
Cc1ccccc1/C=C/C1=NN(C(=N)N)C(c2ccccc2C)C1 ; method: resazurin ; value: 1.96 µM
CSCC[C@H](NS(=O)(=O)c1ccc(C)cc1)C(=O)N/N=C/c1ccc2c(c1)OC(F)(F)O2 ; strain: ATCC 607 ; method: broth dilution / visual reading ; value: >250 µg/mL
CCc1cc(C(N)=S)ccn1 ; strain: mc2155 ; value: 10 µg/mL
COc1cc(/C=C/C2=NN(C(=N)N)C(c3cc(OC)c(OC)c(OC)c3)C2)cc(OC)c1OC ; method: resazurin ; value: 21.2 µM
CN[C@@H]1[C@H](O[C@H]2[C@H](O[C@H]3[C@H](O)[C@@H](O)[C@H](N=C(N)N)[C@@H](O)[C@@H]3N=C(N)N)O[C@@H](C)[C@]2(O)C=O)O[C@@H](CO)[C@H](O)[C@H]1O ; strain: ATCC 607 ; method: broth dilution / visual reading ; value: 4 µg/mL

Repeating the first 3 entries:

| SMILES | strain | method | value |
|---|---|---|---|
| C=C1C2CCC(C(=O)O)[C@@]23CC[C@H](C3)C1(C)C | ATCC 700084 | agar diffusion | 12.5 µg/mL |
| CCCCCCCCC(O)[C@@H]1O[C@H](C(C)O)C(O)C1O | mc2155 | absorbance | 2 µM |
| CSCC[C@H](NS(=O)(=O)c1ccc(C)cc1)C(=O)N/N=C/c1ccc(Cl)s1 | ATCC 607 | broth dilution / visual reading | >250 µg/mL |